Results on 1 substance are retold here after US20100324034A1 (priority 2007, published 2010).

This test relates to resting CD4+ T cells spinoculated with VSVG-pseudotyped R8Δenv/K103N HIV. Format: cell-based, human.

For the substance “N-Hydroxy-N′-phenyl octanediamide [SAHA]”, the “induction of HIV expression, percentage of cells induced, compared with TSA, apicidin and VPA” value was “most effective inducer of HIV expression”.
